A mixed list of measured activities; the numbers were collected in NIAID ChemDB.

Common to all: whole-cell or culture tests; organism: HIV-1

Two numbers with a dash give a range or band.

SMILES	mutations	measure	cells	strain	method	value
CC(=O)OC(C)(C)CCC(=O)[C@](C)(O)[C@H]1[C@H](O)C[C@@]2(C)[C@@H]3CC=C4[C@@H](C[C@H](O)[C@@H](O)C4(C)C)[C@]3(C)C(=O)C[C@]12C	-	EC50	C8166	-	cytopathic effect / MTT	84.7 µM
Cc1cc(C)cc(S(=O)(=O)c2c(C(=O)NC(C)C(=O)NN)[nH]c3ccc(Cl)cc23)c1	-	EC50	C8166	EFV-resistant (RT K103R V179D P225H)	p24	<0.7 µM
COC(C)(C)/C=C/C[C@](C)(O)C1[C@H](O)C[C@@]2(C)[C@@H]3CC=C4[C@@H](C[C@H](O)[C@@H](O)C4(C)C)[C@]3(C)C(=O)C[C@]12C	-	EC50	C8166	-	cytopathic effect / MTT	91.8 µM
NC(=O)[C@@H](N)Cc1ccc(O)cc1	-	EC50	CEM	IIIB	-	500 µM
CSCC[C@H](C)OC(=O)[C@@H](N)c1ccccc1-c1c[nH]c2ccccc12	-	EC50	MT-4	NL4-3	MTT	4.4 µM
CCCCCCCCCCCCCCCCOCCCOP(=O)(N[C@H](C(=O)OC)C(C)C)OC[C@@H]1OC[C@H](n2cc(C)c(=O)[nH]c2=O)O1	RT-M184V	EC50	PBMC	LAI	RT activity	2.8 µM
Cc1nc2c(c(C)c(C)n2CC(=O)N(C)C)c(-c2ccc(Cl)cc2)c1[C@H](OC(C)(C)C)C(=O)O	-	EC50	MT-4	IIIB	MTT	0.0391 µM
Cc1ccc(C(C)S(=O)(=O)c2c(C)ccc[n+]2[O-])c(C)c1	RT-K103N	EC50	CEM	-	cytopathic effect	50 µg/mL
COC(=O)[C@H](C)NP(=O)(OC[C@@H]1OC[C@H](n2cc(C)c(=O)[nH]c2=O)O1)Oc1ccccc1	RT-M184V	EC90	PBMC	LAI	RT activity	1.2 µM
CC(C)C1=C2[C@H]3CC[C@@H]4[C@@]5(C)CC[C@H](OC(=O)[C@H]6C[C@@H](C(=O)O)C6(C)C)C(C)(C)[C@@H]5CC[C@@]4(C)[C@]3(C)CC[C@@]2(NC(=O)C(C)(C)NC(=O)c2ccc(Cl)cc2O[C@H]2CCOC2)CC1=O	-	EC50	MT-2	92HT599	p24 / ELISA	0.003–0.01 µM
CC(C)C#CC1(C(C)C)NS(=O)(=O)Nc2ccc(Cl)cc21	-	EC50	MT-2	RF	-	<0.643 µM
Cc1ccnc2c1NC(=O)c1cccnc1N2C1CC1	-	EC50	PBMC	LAV	p24 / ELISA	0.532 µM
Cc1cn([C@H]2CO[C@@H](CO[P@]3(=O)OCC[C@H](c4ccccc4)O3)O2)c(=O)[nH]c1=O	RT-M184V	EC90	PBMC	LAI	RT activity	22.7 µM
Cc1nc2c(c(C)c(C)n2Cc2ccco2)c(-c2ccc(Cl)cc2)c1[C@H](OC(C)(C)C)C(=O)O	-	EC50	MT-4	IIIB	MTT	0.0291 µM
CCN1c2ncc(CCOc3ccc(-n4nc(C(=O)O)cc4C)cc3C)cc2C(=O)N(C)c2cccnc21	RT-K103N Y181C	EC50	C8166	-	p24	>0.05 µM
CC(C)C1=C2[C@H]3CC[C@@H]4[C@@]5(C)CC[C@H](OC(=O)[C@H]6C[C@@H](C(=O)O)C6(C)C)C(C)(C)[C@@H]5CC[C@@]4(C)[C@]3(C)CC[C@@]2(NC(=O)C(C)(C)NC(=O)c2ccc(CN3CCC(O)CC3)cc2)CC1=O	-	EC50	MT-2	92HT599	p24 / ELISA	<0.003 µM
CCCCCC(CCSC)OC(=O)[C@@H](N)c1ccccc1-c1c[nH]c2ccccc12	-	EC50	MT-4	NL4-3	MTT	>25 µM
COc1cnc(NC(=O)CSc2ccccn2)[n+](OC)c1	-	EC50	MT-4	IIIB	p24 / ELISA / antigen	>100 µM
CSCC[C@H](C)OC(=O)[C@@H](NC(=O)CSC)c1ccccc1-c1c[nH]c2ccccc12	-	EC50	MT-4	NL4-3	MTT	20 µM
CCc1c(Sc2ccccc2)n(COCc2ccccc2)c(=O)[nH]c1=O	-	EC50	MOLT-4	IIIB	cytopathic effect / MTT	0.0039 µM
CCOC(=O)Cn1nccc1-c1ccc(S(=O)(=O)N(CC(C)C)C[C@@H](O)[C@H](Cc2ccccc2)NC(=O)COc2c(C)cccc2C)cc1	-	EC50	MT-4	LAI	cytopathic effect / MTT	1.995 µM
CC(C)C1=C2[C@H]3CC[C@@H]4[C@@]5(C)CC[C@H](OC(=O)[C@H]6C[C@@H](C(=O)O)C6(C)C)C(C)(C)[C@@H]5CC[C@@]4(C)[C@]3(C)CC[C@@]2(NC(=O)C(C)(C)NC(=O)c2ccc(CN3CCNCC3)cc2)CC1=O	-	EC50	MT-2	92HT599	p24 / ELISA	<0.003 µM
COC(=O)[C@H](C)NP(=O)(OC[C@@H]1OC[C@H](n2cc(C)c(=O)[nH]c2=O)O1)Oc1ccc(OC)cc1	RT-M184V	EC90	PBMC	LAI	RT activity	2.6 µM
CCN1c2ncc(CCOc3ccc(-c4ccc(CC(=O)O)cc4)cc3CO)cc2C(=O)N(C)c2cccnc21	RT-K103N Y181C	EC50	C8166	-	p24	0.01–0.05 µM
Cc1ccc(C(C)C)c(O)c1	-	EC50	MT-4	IIIB	MTT	>1000 µg/mL
C=CCNc1nc(-c2ccc(S(=O)(=O)N(CC(C)C)C[C@@H](O)[C@H](Cc3ccccc3)NC(=O)COc3c(C)cc(Br)cc3C)cc2)cs1	-	EC50	MT-4	LAI	cytopathic effect / MTT	39.8 µM
Cc1cn([C@H]2C[C@H](N=[N+]=[N-])[C@@H](CO)O2)c(=O)[nH]c1=O	-	EC50	MT-4	NL4-3	MTT	0.012 µM
CCCCCCCCCCCCCCCCOCCCOP(=O)(NCC(=O)OC)OC[C@@H]1OC[C@H](n2cc(C)c(=O)[nH]c2=O)O1	RT-M184V	EC90	PBMC	LAI	RT activity	80.5 µM
Cc1nc(-c2ccc(S(=O)(=O)N(CC(C)C)C[C@@H](O)[C@H](Cc3ccccc3)NC(=O)O[C@H]3CO[C@H]4OCC[C@H]43)cc2)co1	-	EC50	MT-4	LAI	cytopathic effect / MTT	0.004 µM
C[C@H](CC[C@H](C)C(C)(C)C)[C@H]1CC[C@H]2[C@@H]3C[C@H](OS(=O)(=O)O)[C@H]4C[C@H](OS(=O)(=O)O)[C@@H](OS(=O)(=O)O)C[C@]4(C)[C@H]3CC[C@]12C	-	EC50	CEM + CEM-SS	RF	cytopathic effect / XTT	6 µM
Cc1cc(S(=O)(=O)Nc2nnc3c4ccccc4cnn23)c(S)cc1Cl	-	EC50	CEM	Diphenyl sulfone-resistant	p24	10.6 µM
CNc1nc(-c2ccc(S(=O)(=O)N(CC(C)C)C[C@@H](O)[C@H](Cc3ccccc3)NC(=O)O[C@H]3CO[C@H]4OCC[C@H]43)cc2)cs1	-	EC50	MT-4	LAI	cytopathic effect / MTT	0.003 µM
CC(C)C1(C#CC2CC2)NS(=O)(=O)Nc2ccc(Cl)cc21	-	EC50	MT-2	RF	-	<0.677 µM
Cc1cc(C)c(CS(=O)c2cccc[n+]2[O-])c(C)c1	RT-Y181C	EC50	CEM	-	cytopathic effect	10 µg/mL
CC(=O)O[C@@H]1C[C@@]2(C)C3CC=C4[C@@H](C[C@H](O)[C@@H](O)C4(C)C)[C@]3(C)C(=O)C[C@]2(C)C1C(C)(O)C(=O)/C=C/C(C)(C)OC(C)=O	-	EC50	C8166	-	cytopathic effect / MTT	80.2 µM
O=C(CSc1ccccn1)Nc1ccccc1	-	EC50	MT-4	IIIB	p24 / ELISA / antigen	>100 µM
O=S(=O)(Nc1nnc2c3ccccc3ccn12)c1ccc(F)cc1S	-	EC50	CEM	RF	cytopathic effect / XTT	13.9 µM
CCN1c2ncc(CCOc3ccc(-c4ccc(C(=O)O)nc4)cc3C)cc2C(=O)N(C)c2cccnc21	-	EC50	C8166	IIIB	p24	<0.01 µM
O=C1Nc2ccc(F)c(F)c2[C@@](C#CC2CC2)(C(F)(F)F)N1	-	EC50	MT-2	RF	-	<0.0013 µM
Cc1cc(-c2nc(-c3ccc(S(=O)(=O)N(CC(C)C)C[C@@H](O)[C@H](Cc4ccccc4)NC(=O)O[C@H]4CO[C@H]5OCC[C@H]54)cc3)co2)no1	-	EC50	MT-4	LAI	cytopathic effect / MTT	0.004 µM
CCCCCCCCCC[N+](C)(C)CCCNCc1c(O)cc2c(c1O)-c1cc(ccc1O)[C@H]1NC(=O)[C@@H]3NC(=O)C4NC(=O)[C@@H](Cc5ccc(c(Cl)c5)Oc5cc3cc(c5O)Oc3ccc(cc3Cl)[C@@H](O)[C@H](NC1=O)C(=O)N[C@@H]2C(=O)O)NC(=O)[C@H](N)c1ccc(O)c(c1)Oc1cc(O)cc4c1	-	EC50	CEM	MN	syncytia	6.5 µM
Cc1nc2c(c(C)c(C)n2CC2CCCC2)c(-c2ccc(Cl)cc2)c1[C@H](OC(C)(C)C)C(=O)O	-	EC50	MT-4	IIIB	MTT	0.1449 µM
COc1cccc(-c2nc(-c3ccc(S(=O)(=O)N(CC(C)C)C[C@@H](O)[C@H](Cc4ccccc4)NC(=O)O[C@H]4CO[C@H]5OCC[C@H]54)cc3)co2)c1	-	EC50	MT-4	LAI	cytopathic effect / MTT	0.01 µM
CCCCCCCCCCCCCCCCCCOCCOP(=O)(N[C@@H](C)C(=O)OC)OC[C@@H]1OC[C@H](n2cc(C)c(=O)[nH]c2=O)O1	RT-M184V	EC50	PBMC	LAI	RT activity	4.4 µM
CC(C)C1=C2[C@H]3CC[C@@H]4[C@@]5(C)CC[C@H](OC(=O)[C@H]6C[C@@H](C(=O)O)C6(C)C)C(C)(C)[C@@H]5CC[C@@]4(C)[C@]3(C)CC[C@@]2(NC(=O)C(C)(C)NC(=O)c2ccc(Cl)cc2OC2CCNCC2)CC1=O	-	EC50	MT-2	92HT599	p24 / ELISA	<0.003 µM
CCN1c2ncc(CCOc3ccc(-c4ccc(C(=O)O)cc4)cc3C)cc2C(=O)N(C)c2cccnc21	RT-K103N Y181C	EC50	C8166	-	p24	<0.01 µM
NCC(=O)O	-	EC50	CEM	IIIB	-	500 µM
Cc1ccc(C)c(CSc2c(Cl)ccc[n+]2[O-])c1	RT-Y181C	EC50	CEM	-	cytopathic effect	≥20 µg/mL
COc1cc(O)c(CC=C(C)C)c(O)c1C(=O)/C=C/c1ccc(O)cc1	-	EC50	C8166	IIIB	p24	3.21 µM
C[C@H](Cn1cnc2c(N)ncnc21)OCP(=O)(O)O	-	EC50	TZM-bl	pTHRO.c/2626	luciferase	0.008 µM
NCC(=O)CN	-	EC50	CEM	IIIB	-	1000 µM
Cc1cn([C@H]2CO[C@@H](COP(=O)(N[C@@H](C)C(=O)OC(C)(C)C)Oc3ccccc3)O2)c(=O)[nH]c1=O	RT-M184V	EC50	PBMC	LAI	RT activity	24.8 µM
O=C(CSc1ccccn1)Nc1cc(C(F)(F)F)cc(C(F)(F)F)c1	-	EC50	MT-4	IIIB	p24 / ELISA / antigen	>100 µM
Cc1nc2c(c(C)c(C)n2Cc2ccsc2)c(-c2ccc(Cl)cc2)c1[C@H](OC(C)(C)C)C(=O)O	-	EC50	MT-4	IIIB	MTT	0.02817 µM
C[C@@H](O)[C@H](N)C(N)=O	-	EC50	CEM	IIIB	-	500 µM
CC(C)CN(C[C@@H](O)[C@H](Cc1ccccc1)NC(=O)O[C@H]1CO[C@H]2OCC[C@H]21)S(=O)(=O)c1ccc(-c2csc(Nc3ccncc3)n2)cc1	-	EC50	MT-4	LAI	cytopathic effect / MTT	0.025 µM
Cc1cc(C)cc(S(=O)(=O)c2c(C(=O)NCC(=O)NC(C)C(=O)NN)[nH]c3ccc(Cl)cc23)c1	-	EC50	MT-4	Nevirapine-resistant (RT Y181C)	cytopathic effect / MTT	0.16 µM
N=C1Sc2ccccc2C2=NCCCN12	-	EC50	PBMC	92RW016	ELISA	0.22 µM
O=c1cc(Sc2ccccc2)n(COCCO)c(=O)[nH]1	-	EC50	MT-4	IIIB	cytopathic effect / MTT	>500 µM
Cc1cc(C)cc(S(=O)(=O)c2c(C(=O)NCC(N)=O)[nH]c3ccc(Cl)cc23)c1	-	EC50	C8166	IIIB	p24	<0.01 µM
CC(C)C#CC1(C2CC2)NS(=O)(=O)Nc2ccc(Cl)cc21	-	EC50	MT-2	RF	-	<0.182 µM
Cc1ccc(C)c(CS(=O)c2ccc(Cl)c[n+]2[O-])c1	-	EC50	CEM	RF	cytopathic effect	10 µg/mL
NC(=O)CCNC(=O)c1ccccc1SCc1ccccc1	-	EC50	Monocyte macrophages	-	cytopathic effect / XTT	>100 µM
C=CCc1ccccc1OP(=O)(N[C@@H](C)C(=O)OC)OC[C@@H]1OC[C@H](n2cc(C)c(=O)[nH]c2=O)O1	RT-M184V	EC50	PBMC	LAI	RT activity	3.3 µM
Cc1cc(C)cc(S(=O)(=O)c2c(C(=O)NC(C)C(N)=O)[nH]c3ccc(Cl)cc23)c1	-	EC90	C8166	IIIB	p24	0.004 µM
CC(C)C1=C2[C@H]3CC[C@@H]4[C@@]5(C)CC[C@H](OC(=O)[C@H]6C[C@@H](C(=O)O)C6(C)C)C(C)(C)[C@@H]5CC[C@@]4(C)[C@]3(C)CC[C@@]2(NC(=O)C(C)(C)NC(=O)c2ccc(N3CCC(O)CC3)cc2)CC1=O	-	EC50	MT-2	92HT599	p24 / ELISA	<0.003 µM
CSCC[C@H](OC(=O)[C@@H](N)c1ccccc1-c1c[nH]c2ccccc12)c1ccccc1	-	EC50	MT-4	NL4-3	MTT	12 µM
Cc1nc2c(c(C)c(C)n2Cc2ccoc2)c(-c2ccc(Cl)cc2)c1[C@H](OC(C)(C)C)C(=O)O	-	EC50	MT-4	IIIB	MTT	0.02616 µM
O=C(CSc1nc2ccccc2[nH]1)Nc1cc(F)ccc1F	-	EC50	MT-4	IIIB	p24 / ELISA / antigen	1.25 µM

ECn: concentration that inhibits the pathogen or its effect by n%. Rows are shuffled and stem from different studies. Blank or dashed fields: not listed here.